Test results as given in patent publication US7129271B2, “Compounds for pest control and methods for their use” (The United States of America as represented by the …, priority 2000, dated 2006).

System: I. scapularis nymphs
Test: Tick bioassay, modified disposable pipette method, treated vials (Example 9)
Type: in vivo, Ixodes scapularis
Settings: 24 h exposure; probit analysis
Procedure: Tick Colonies. […] There was no known pesticide used at this location. Ticks were maintained at 21° C., 90% RH, and received a 16:8 h (light:dark) cycle as described in […]. Med. […] Tick and Flea Bioassays. […] A control treated with acetone only was run with each series. Tick and flea susceptibility was evaluated using a modified disposable pipette method. See, Barnard, D. R., et al., J. Econ. […] Three to 4 holes were made in the plastic cap to allow for air exchange. Nymphal ticks and adult fleas were then placed directly into the vials using forceps. Vials containing ticks or fleas were placed in desiccators for 24 h at 21° C. and 90% RH. […] For each time point, if ticks were incapable of movement, maintaining normal posture, leg coordination, ability to right themselves, or any signs of life, they were considered moribund or dead.

SMILES	Slope
C=C(C)[C@@H]1CCC2=CCC[C@@H](C)[C@]2(C)C1 [Compound 5, Valencene]	0.684
C=C(C)C1CC=C2C=CCC(C)C2(C)C1 (stereo not shown) [Compound 6, Nootkatene]	1.763
C=C(CO)C1CCC2=CCC[C@@H](C)[C@]2(C)C1 (stereo partly shown) [Compound 10, 13-hydroxy-valencene]	2.562
C[C@@H]1CCC=C2CCC(C3(C)CO3)C[C@]21C (stereo partly shown) [Compound 13, valencene-11,12-epoxide]	0.571
C=C(C=O)C1CCC2=CCC[C@@H](C)[C@]2(C)C1 (stereo partly shown) [Compound 15, valencene-13-aldehyde]	2.755
C=C(C)C1CCC23OC2C(=O)C[C@@H](C)[C@]3(C)C1 (stereo partly shown) [Compound 17, nootkatone-1,10-epoxide]	2.883
C[C@@H]1CC(=O)C2OC23CCC(C2(C)CO2)C[C@@]13C (stereo partly shown) [Compound 18, nootkatone-1,10-11,12-diepoxide]	2.131
